Results: PMC11961260 (Royal Society Open Science, 2025)

Assay: general procedure: Fmoc solid-phase peptide synthesis; 2-chlorotrityl chloride (2-CTC) resin (substitution = 0.6 mmol g^-1); DIC, Oxyma, DIEA
[1] = whole synthesis, scale of the general procedure 0.05 mmol
[2] = whole synthesis, scale 0.05 mmol
[3] = whole synthesis, scale 0.01 mmol

## Boc-E(WE-COOH)WE-COOH
Late stage modification step
  step yield: 60%
  final HPLC purity: 99%

## Ptz-GE(FE-COOH)FE-COOH
[1]
  final HPLC purity: 99.9%
[2]
  isolated mass: 11 mg
  isolated yield: 22%

## Ptz-GE(HE-COOH)HE-COOH
[1]
  final HPLC purity: 99.8%
[2]
  isolated mass: 9 mg
  isolated yield: 18%

## Ptz-GE(WE-COOH)WE-COOH
[1]
  final HPLC purity: 99.9%
[2]
  isolated mass: 20 mg
  isolated yield: 18%

## Ptz-GE(YE-COOH)YE-COOH
[1]
  final HPLC purity: 99.5%
[2]
  isolated mass: 10 mg
  isolated yield: 20%

## Ptz-GE(hE-COOH)hE-COOH
[1]
  final HPLC purity: 99.8%
[3]
  isolated mass: 1.7 mg
  isolated yield: 17%

## Ptz-GE(wE-COOH)wE-COOH
[1]
  final HPLC purity: 98%
[3]
  isolated mass: 2 mg
  isolated yield: 19%
